Anti-infective test results gathered from many reports (values: NIAID ChemDB through PubChem).

Common to all: tests in culture; agent: HIV-1; read-out: EC50

An empty or dashed field is not shown. Neighbouring rows are from separate reports. ECn: concentration that inhibits the pathogen or its effect by n%.

SMILES,cell line,changes,strain,value
O=c1[nH]c(=O)n(/C=C\P(=O)(O)O)cc1I,CEM + CEM-SS,,IIIB,>200 µM
CC(=O)c1cc(C#N)cc(C(=O)c2cc(Cl)ccc2OCC(=O)Nc2ccc(S(N)(=O)=O)cc2C)c1,HeLa,K103N,,0.0013 µM
Cc1cccc(Cn2c(=O)ccn(CC#N)c2=O)c1,PBMC,,IIIB,6.7 µM
CC(=O)Nc1nc2c(ncn2/C=C\P(=O)(O)O)c(=O)[nH]1,CEM + CEM-SS,,IIIB,>200 µM
CC(C)(C)[C@H](NC(=O)OCc1ccccc1)C(=O)N[C@@H](Cc1ccccc1)[C@@H](O)[C@H](CO)[C@H](Cc1ccccc1)NC(=O)[C@@H](NC(=O)OCc1ccccc1)C(C)(C)C,MT-4,,IIIB,1.65 µM
Nc1ccn([C@@H]2CC[C@H](CO)O2)c(=O)n1,U-937,,IIIB,0.1 µM
CCCC(=O)OC[C@@H](OC(=O)CCC)[C@@H](OC(=O)CCC)[C@H](Cn1c2nc(=O)[nH]c(=O)c-2nc2cc(C)c(C)cc21)OC(=O)CCC,MT-4,,LAV,>100 µg/mL
O=c1[nH]c(=O)n([C@H]2O[C@@H](CO)C[C@H]2F)cc1Cl,PBM,,,>100 µM
O=C(Nc1ncc[nH]1)c1cccc(CN2C(=O)N(Cc3cccc(C(=O)Nc4ncc[nH]4)c3)[C@H](Cc3ccccc3)[C@H](O)[C@@H](O)[C@H]2Cc2ccccc2)c1,MT-2,,RF WT,<0.06 µM
CCOP(=O)(/C=C\n1ccc(N)nc1=O)OCC,CEM + CEM-SS,,IIIB,>200 µM
Cc1cn([C@H]2C[C@H](N=[N+]=[N-])[C@@H](CO)O2)c(=O)[nH]c1=O,MT-4,,,0.7 µM
O=c1[nH]c(=O)n([C@@H]2O[C@@H](CO)C[C@H]2F)cc1Br,PBM,,,>100 µM
Cc1cc(C)cc(Cn2c(=O)ccn(CC#N)c2=O)c1,PBMC,,IIIB,0.59 µM
CC(C)(C)[C@H](NC(=O)OCc1ccccc1)C(=O)N[C@@H](Cc1ccccc1)[C@H](O)[C@@H](CO)[C@H](Cc1ccccc1)NC(=O)[C@@H](NC(=O)OCc1ccccc1)C(C)(C)C,MT-4,,IIIB,>10 µM
NC(CC(=O)O)C(=O)O,MT-4,,LAV,>100 µg/mL
CC(C)(C)C[C@H](NC(=O)OCc1ccccc1)C(=O)N[C@@H](Cc1ccccc1)[C@@H](CO)[C@H](O)[C@H](Cc1ccccc1)NC(=O)[C@@H](NC(=O)OCc1ccccc1)C(C)(C)C,MT-4,,IIIB,1.6 µM
Cc1cn([C@H]2C=C[C@H](CO)O2)c(=O)[nH]c1=O,,,,>1000 µM
O=c1[nH]cnc2c1ncn2[C@H]1CC[C@@H](CO)O1,PBMC,,LAI,0.85 µM
CC(C)[C@H](NC(=O)OCc1ccccc1)C(=O)N[C@@H](Cc1ccccc1)[C@@H](O)[C@H](CO)[C@H](Cc1ccccc1)NC(=O)OC(C)(C)C,MT-4,,IIIB,>10 µM
Cc1cc(S(N)(=O)=O)ccc1NC(=O)COc1ccc(Cl)cc1C(=O)c1cc(C#N)cc(OCF)c1,HeLa,WTRVA,,0.0007 µM
N#CCn1ccc(=O)n(Cc2ccc(-c3ccccc3)cc2)c1=O,PBMC,,IIIB,58 µM
O=C(OCC1(COC(=O)c2cccnc2)CCCC(COC(=O)c2cccnc2)(COC(=O)c2cccnc2)C1O)c1cccnc1,MT-4,,LAV,>100 µg/mL
Cc1cc(S(N)(=O)=O)ccc1NC(=O)COc1ccc(Cl)cc1C(=O)c1cc(C#N)cc(CO)c1,HeLa,WTRVA,,0.002 µM
CC(C)=CCN1Cc2cc(Cl)cc3[nH]c(=S)n(c23)C[C@@H]1C,PBMC,RT-A98G Y181C,BCF03,>6.25 µM
CC(=O)Nc1nc2c(ncn2/C=C/P(=O)(O)O)c(=O)[nH]1,CEM + CEM-SS,,IIIB,>200 µM
Cc1ncc(CSSCc2cnc(C)c(O)c2CO)c(CO)c1O,MT-4,,LAV,>100 µg/mL
Nc1ccn([C@H]2CC[C@@H](CO)O2)c(=O)n1,PBMC,RT-A98G K103R,BCF11,0.05 µM
O=c1[nH]c(=O)n([C@H]2O[C@@H](CO)C[C@H]2F)cc1Br,PBM,,,>100 µM
O=C(Cc1cccs1)c1cccc(CN2C(=O)N(Cc3ccc4[nH]ncc4c3)[C@H](Cc3ccccc3)[C@H](O)[C@@H](O)[C@H]2Cc2ccccc2)c1,MT-2,,RF,<0.018 µM
Cc1cc(OC[C@H]2CNCCO2)ccc1NC(=O)COc1ccc(Cl)cc1C(=O)c1cc(C#N)cc(OC(F)F)c1,HeLa,K103N,,0.0003 µM
O=C1N(Cc2cccc(O)c2)[C@H](Cc2ccccc2)[C@H](O)[C@@H](O)[C@@H](Cc2ccccc2)N1Cc1ccc2[nH]ncc2c1,MT-2,,RF,<0.036 µM
CC(C)(C)[C@H](NC(=O)OCc1nc2ccccc2[nH]1)C(=O)N[C@@H](Cc1ccccc1)[C@@H](O)[C@H](CO)[C@H](Cc1ccccc1)NC(=O)[C@@H](NC(=O)OCc1nc2ccccc2[nH]1)C(C)(C)C,MT-4,,IIIB,0.5 µM
Nc1nc2c(ncn2[C@H]2O[C@@H](CO)C[C@@H]2F)c(=O)[nH]1,PBM,,,>100 µM
CC(C)[C@H](NC(=O)OCc1ccccc1)C(=O)N[C@@H](Cc1ccccc1)[C@@H](O)[C@H](CO)[C@H](Cc1ccccc1)NC(=O)[C@H](CC(N)=O)NC(=O)OCc1ccccc1,MT-4,,IIIB,>10 µM
O=C1Nc2ccc(Cl)cc2C(c2ccccc2Cl)=NC1O,MT-4,,LAV,>1 µg/mL
Cc1cn([C@H]2C[C@H](N=[N+]=[N-])[C@@H](COP(=O)(OCc3ccccc3)OCc3ccccc3)O2)c(=O)[nH]c1=O,CEM + CEM-SS,,,0.01 µM
Cc1cc(S(N)(=O)=O)ccc1NC(=O)COc1ccc(Cl)cc1C(=O)c1cc(C#N)cc(N(C)C)c1,HeLa,K103N,,0.0013 µM
O=[N+]([O-])c1ccccc1S(=O)(=O)c1ccccc1,C8166,,RF,3.2 µM
CCOP(=O)(/C=C/n1cc(F)c(=O)[nH]c1=O)OCC,CEM + CEM-SS,,IIIB,>200 µM
COC(=O)Nc1cc(C#N)cc(C(=O)c2cc(Cl)ccc2OCC(=O)Nc2ccc(S(N)(=O)=O)cc2C)c1,HeLa,Y181C,,0.016 µM
CC(C)(C)C[C@H](NC(=O)OCc1ccccc1)C(=O)N[C@@H](Cc1ccccc1)[C@H](CO)[C@@H](O)[C@H](Cc1ccccc1)NC(=O)[C@@H](NC(=O)OCc1ccccc1)C(C)(C)C,MT-4,,IIIB,>10 µM
Nc1ccn([C@H]2CC[C@@H](CO)O2)c(=O)n1,PBMC,,LAI,0.00064 µM
Cc1cccc(C)c1OCC(=O)N[C@@H](Cc1ccccc1)[C@@H](O)C[C@H](Cc1ccccc1)NC(=O)[C@H](C(C)C)N1CCCNC1=O,MT-2,,LAI,0.034 µM
NC(=O)c1cc(CN2C(=O)N(Cc3ccc4[nH]ncc4c3)[C@H](Cc3ccccc3)[C@H](O)[C@@H](O)[C@H]2Cc2ccccc2)ccc1F,MT-2,,RF,<0.014 µM
N#CCn1ccc(=O)n(Cc2cc(F)cc(F)c2)c1=O,PBMC,,IIIB,13.5 µM
CC(C)c1cc2c(c(O)c1O)[C@@]1(C(=O)O)CCCC(C)(C)C1CC2,PBMC,PR-L10I I15V K20R L24I M36I M46L I54V I62V L63P K70O V82A L89M,clinical isolate 1(C MDR X4),>1 µM
Nc1ccn(/C=C\P(=O)(O)O)c(=O)n1,CEM + CEM-SS,,IIIB,>200 µM
Cc1cccc(C)c1Cn1c(=O)ccn(CC#N)c1=O,PBMC,,IIIB,196 µM
Cc1cn([C@H]2O[C@@H](CO)C[C@H]2F)c(=O)[nH]c1=O,PBM,,,190 µM
Cc1cc(S(N)(=O)=O)ccc1NC(=O)COc1ccc(Cl)cc1C(=O)c1cc(C#N)cc(C(=O)N2CCC2)c1,HeLa,V106A,,>2 µM
CCOP(=O)(OCC)OC[C@@H]1C=C[C@H](n2cc(C)c(=O)[nH]c2=O)O1,CEM + CEM-SS,,,3.5 µM
CC(C)=CCN1c2cc(Cl)cc3[nH]c(=S)n(c23)C[C@@H]1C,MT-4,RT-L74V,,<0.05 µM
Cc1cc(S(N)(=O)=O)ccc1NC(=O)COc1ccc(Cl)cc1C(=O)c1cc(Cl)cc(C#N)c1,HeLa,V106A,,0.0023 µM
O=C(Cn1cccn1)c1cccc(CN2C(=O)N(Cc3ccc4[nH]ncc4c3)[C@H](Cc3ccccc3)[C@H](O)[C@@H](O)[C@H]2Cc2ccccc2)c1,MT-2,,RF,<0.015 µM
C[N+]1(C)CCCC(OC(=O)C(O)(c2ccccc2)c2ccccc2)C1,MT-4,,LAV,>100 µg/mL
Cc1cn([C@H]2C[C@H](N=[N+]=[N-])[C@H](CO)O2)c(=O)[nH]c1=O,,,,>1000 µM
Cn1c(=O)c2c(ncn2C)n(C)c1=O,MT-4,,LAV,>100 µg/mL
Cc1cc(S(N)(=O)=O)ccc1NC(=O)COc1ccc(Cl)cc1C(=O)c1cc(C#N)cc(C(=O)N2CCOCC2)c1,HeLa,Y181C,,0.97 µM
Cc1cn([C@H]2C=C[C@@H](COP(=O)(OCc3ccccc3)OCc3ccccc3)O2)c(=O)[nH]c1=O,CEM + CEM-SS,,,4.4 µM

A second listing of 8 rows from above:

SMILES	cell line	changes	strain	value
CC(=O)c1cc(C#N)cc(C(=O)c2cc(Cl)ccc2OCC(=O)Nc2ccc(S(N)(=O)=O)cc2C)c1	HeLa	K103N		0.0013 µM
Nc1ccn([C@@H]2CC[C@H](CO)O2)c(=O)n1	U-937		IIIB	0.1 µM
CC(C)(C)[C@H](NC(=O)OCc1ccccc1)C(=O)N[C@@H](Cc1ccccc1)[C@H](O)[C@@H](CO)[C@H](Cc1ccccc1)NC(=O)[C@@H](NC(=O)OCc1ccccc1)C(C)(C)C	MT-4		IIIB	>10 µM
Cc1cc(S(N)(=O)=O)ccc1NC(=O)COc1ccc(Cl)cc1C(=O)c1cc(C#N)cc(OCF)c1	HeLa	WTRVA		0.0007 µM
CC(C)(C)C[C@H](NC(=O)OCc1ccccc1)C(=O)N[C@@H](Cc1ccccc1)[C@@H](CO)[C@H](O)[C@H](Cc1ccccc1)NC(=O)[C@@H](NC(=O)OCc1ccccc1)C(C)(C)C	MT-4		IIIB	1.6 µM
O=c1[nH]c(=O)n([C@H]2O[C@@H](CO)C[C@H]2F)cc1Br	PBM			>100 µM
Cc1cc(OC[C@H]2CNCCO2)ccc1NC(=O)COc1ccc(Cl)cc1C(=O)c1cc(C#N)cc(OC(F)F)c1	HeLa	K103N		0.0003 µM
CC(C)=CCN1c2cc(Cl)cc3[nH]c(=S)n(c23)C[C@@H]1C	MT-4	RT-L74V		<0.05 µM